Data on 1 molecule can be found in publication PMC4113749 (Toxins, 2014).

The test deals with isolated TcdA CROPs (TcdA^1875–2710) (Clostridium difficile (strain VPI 10463), UniProt P16154 1875-2710). Nature of the test: MST.

B1: N-terminally EGFP-labeled TcdA^1102–1847 (domain or fragment)
chain: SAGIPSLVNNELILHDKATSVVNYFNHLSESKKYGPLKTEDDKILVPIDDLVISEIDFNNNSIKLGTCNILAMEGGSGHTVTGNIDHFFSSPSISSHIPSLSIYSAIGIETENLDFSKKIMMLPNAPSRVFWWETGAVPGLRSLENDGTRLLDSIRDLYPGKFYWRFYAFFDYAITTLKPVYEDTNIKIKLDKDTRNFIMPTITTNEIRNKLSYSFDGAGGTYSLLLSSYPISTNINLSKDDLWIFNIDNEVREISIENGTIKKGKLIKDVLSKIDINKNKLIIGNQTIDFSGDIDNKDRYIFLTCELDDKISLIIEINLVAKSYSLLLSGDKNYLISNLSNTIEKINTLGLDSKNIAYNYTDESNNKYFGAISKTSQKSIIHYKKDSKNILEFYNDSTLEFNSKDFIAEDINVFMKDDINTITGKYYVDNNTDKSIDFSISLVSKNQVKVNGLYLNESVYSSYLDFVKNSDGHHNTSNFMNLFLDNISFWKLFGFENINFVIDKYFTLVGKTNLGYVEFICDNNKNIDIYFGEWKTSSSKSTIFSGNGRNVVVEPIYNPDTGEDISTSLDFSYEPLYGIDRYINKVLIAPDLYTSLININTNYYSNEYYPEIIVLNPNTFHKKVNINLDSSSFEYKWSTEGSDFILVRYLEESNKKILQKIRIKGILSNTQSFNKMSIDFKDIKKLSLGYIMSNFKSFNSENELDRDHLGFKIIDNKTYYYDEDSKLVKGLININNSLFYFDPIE
Regarding B1, the affinity, expressed as Kd, was 3.06 µM.
